# Results published in patent US5559025A (priority 1991, dated 1996).
# Chains of the proteins cited; added tags and fusions are not shown. Residues count along the entry.
# UniProt P04936, 851-992 limits assumed: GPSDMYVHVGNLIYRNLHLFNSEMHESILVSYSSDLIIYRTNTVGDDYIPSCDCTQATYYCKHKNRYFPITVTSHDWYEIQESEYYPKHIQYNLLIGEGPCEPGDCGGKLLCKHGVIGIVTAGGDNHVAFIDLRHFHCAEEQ
# Target: HRV2 2A proteinase (Human rhinovirus 2, UniProt P04936)
# Test: Trans-cleavage assay: effect of known proteinase inhibitors and reducing agents on cleaving of peptide P89
# Format: biochemical
# Settings: inhibitor added before start of reaction; repeated three times
compound,measurement,value
O=S(=O)(F)Cc1ccccc1,effect on the activity of 2A relative to peptide P89,only effective at higher concentrations
